Here are results for 17 molecules from US20250026813A1, “Antibodies against sars-cov-2 and uses thereof” (published 2025).

Changes are numbered by the printed parent chain.

To fix the notation:
B1: IMPI-063 (antibody, V domains shown)
VH: EVQLVESGGGVVRPGGSLRLSCAASGFTFDDYGMSWVRQAPGKGLEWVSGIYWNGGSTGYADSVKGRFTISRDNAKNSLYLQMNSLRAEDMALYYCARGVGATDYWGQGTLVTVSS
VL: EIVLTQSPGTLSLSSGERATLACRASESVRGSFLAWYQQKPGQAPRLLIYGASRRATGIPDRFSGSGSGTDFTLTISRLEPEDFAVYYCQQYGNSPMCSFGQGTKLEIK
B2: IMPI-059 (antibody, V domains shown)
VH: EVQLVESGGGLIQPGGSLRLSCAASGFTVSSIYMSWVRQAPGKGLEWVSIIYSRGSTDYADSVKGRFTISRDISKNTLYLQMNSLRAEDTAVYYCARDGTMVRGVHAFDIWGQGTMVTVSS
VL: DIQMTQSPPSLSASIGDRVTITCQASQDISNYLNWYQQKPGKAPKLLIYDASNLETGVPSRFSGSGSGTDFTLTISNLQPEDIVTYYCQQYDNLPSSFGQGTKLEIK
B3: IMPI-006 (antibody, V domains shown)
VH: QLQLQESGPGLVKPSETLSLTCTVSGGSISNSNYYWGWIRQPPGKGLEWIGSIYYSGRTYYNPSLKSRVTISVDTSKNQFSLKLSSVTAADTAVYYCARMGLLWFGEFYGMDVWGQGTTVTVSS
VL: DIQMTQSPSSLSASVGDRVTITCRASQGISSWLAWYQQKPEKAPKSLIYDASSLQRGVPSRFSGSGSGTDFTLTISSLQPEDFASYYCQQYNSYPLTFGGGTRVEIK
B4: IMPI-024 (antibody, V domains shown)
VH: EVQLVQSGAEVKKPGESLKISCKGSGYSFTSYWIGWVRQMPGKGLEWMGIIYPGDSDTRYSPSFQGQVTISADKSISTAYLQWSSLKASDTAMYYCVRSYNWNYFDYWGQGTLVTVSS
VL: AIQLTQSPSSLSASVGDRVTITCRASQGISSGLAWYQQKAGKAPKLLIYDVSSLESGVPSRFSGSGSGTDFTLTISSLQPEDFATYYCQQFLSYPWTFGQGTKVEIK
B5: IMPI-022 (antibody, V domains shown)
VH: EVQLVESGGGLVQPGRSLRLSCAASGFTFDDYAMHWVRQAPGKGLEWVSGITWNSGSIGYADSVKGRFTISRDNAKNSLYLHMNSLRVEDTALYYCAKDLQGDYYYYGVDVWGQGTTVTVSS
VL: B4 VL with G32A, A40P, I48L, V51A, E55V, G66R, L92I, W96L, Q100G, K103R
B6: IMPI-027 (antibody, V domains shown)
VH: QVQLQESGPGLVKPSQTLSLTCTVSGGSISSYGYYWNWIRQHPGKGLEWIGYIYYSGSTYYNPSLKSRVTISVDTSKNQLSLRLNSVSAADTAVYYCARDFGGNSNYFDYWGQGTLVTVSS
VL: B4 VL with A25T, G32A, A40P, V51A, L92N, W96L, Q100G
B7: IMPI-033 (antibody, V domains shown)
VH: B6 VH with N37S, I71M
VL: B4 VL with G32A, A40P, K45N, V51A, L92N, Y94S, W96L, Q100G
B8: IMPI-032 (antibody, V domains shown)
VH: QVQLQESGPGLVKPSGTLSLTCAVSGGSISSNKWWSWVRQPPGKGLEWIGEIDHSGSTMYNPSLKSRVTISVDKSKNQFSLKLNSVTAADTAVYYCTGEGYNWNYWGQGTRVTVSS
VL: DVVMTQSPLSLPVTLGQTASISCRSSQSLLYTDGNTYLSWFQQRPGQSPRRLIYKVSKWESGVPDRFSGSGSGTDFTLKISRVEAEDVGIYYCMQGTHWPLTFGGGTKVEIK
B9: IMPI-054 (antibody, V domains shown)
VH: EVQLVESGGGLIQPGGSLRLSCAASGLTVSSNYMSWVRQAPGKGLEWVSIIYSGGSTYYADSVKGRFTISRDNSKNTLYLQMNSLRAEDTAVYYCARLGGYYYYGMDVWGQGTTVTVSS
VL: DIQMTQSPSSLSASVGERVTITCQASQDIRNYLNWYQKKPGKAPKLLIYDSSNLETGVPSRFSGSGSGTDFTFTISSLQPEDIATYYCQQYDNLPITFGQGTRLEIK
B10: IMPI-042 (antibody, V domains shown)
VH: B9 VH
VL: B9 VL with S65G
B11: IMPI-029 (antibody, V domains shown)
VH: EVQLVESGGGLIQPGGSLRLSCAASGVTVSSNYMNWVRQAPGKGLEWVSVIYSGGSTYYADSVKGRFTISRDNSKNTLFLQMNSLRAEDSAVYYCARDLGPYGVDVWGQGTTVTVSS
VL: DIQLTQSPSFLSASVGDRVTITCWASQGISSYLAWYQQKPGKAPKLLIYAASTLQSGVPSRFSGSGSGTEFTLTISSLQPEDFATYYCQELNSYPLTFGQGTRLEIK
B12: IMPI-047 (antibody, V domains shown)
VH: B11 VH with V27F, F79Y, A87T, S90T, G100V, P101A, V104M
VL: B11 VL with L46V, E90L, Y94N, Q100G, R103K, L104V
B13: IMPI-017 (antibody, V domains shown)
VH: B11 VH with S25A, V27L, A40V, F79Y, S90T, P101T, Y102L, V104M
VL: B11 VL with S31T, E90Q, P95L, L96P, R103K, L104V
B14: IMPI-060 (antibody, V domains shown)
VH: B11 VH with N35S, Y58F, F79Y, S90T, G100S, P101Y, V104M
VL: B11 VL with R61K, E90Q, L96S, T97S, R103K
B15: IMPI-021 (antibody, V domains shown)
VH: B11 VH with N35S, Y58F, F79Y, S90T, G100S, P101Y, V104M
VL: B11 VL with R61K, E90Q, L96C, T97S, R103K
B16: IMPI-005 (antibody, V domains shown)
VH: B11 VH with V27F
VL: B11 VL
B17: IMPI-055 (antibody, V domains shown)
VH: QVQLVQSGAEVKKPGASVKVSCKASGYTFTSYDINWVRQATGQGLEWMGWMNPNSGNTGYAQKFQGRVTMTRDTSINTAYMELSSLRSEDTAVYFCARGGRYCSDVTCYSGEPFDYWGQGTLVTVSS
VL: EIMLTQSPDFQSVTPKEKVTITCRASQSIGSSLHWYQQKPDQSPKLLIKFASQSISGVPSRFSGSGSGTDFTLTINSLEAEDAAAYYCHQSSSLPHTFGPGTKVEIK

The test concerns the target RBD domain of the SARS-CoV-2 spike protein (Acro Biosystems SPD-C52H3), His tag (SARS-CoV-2, UniProt P0DTC2 319-537).
In the case of B1, the “HTRF deltaF” value is -7.3 deltaF.

As for B2, the “HTRF deltaF” value worked out at 882 deltaF.

Turning to B3, the “HTRF deltaF” value is 331 deltaF.

Consider B4, for which the “HTRF deltaF” value was 225 deltaF.

As for B5, the “HTRF deltaF” value is -2.4 deltaF.

For the molecule B6, the “HTRF deltaF” value turned out to be 318 deltaF.

As to B7, the “HTRF deltaF” value came to 454 deltaF.

Take B8: the “HTRF deltaF” value stood at 4 deltaF.

Consider B9, for which the “HTRF deltaF” value turned out to be 818 deltaF.

For the molecule B10, the “HTRF deltaF” value amounted to 121 deltaF.

B11: the “HTRF deltaF” value is 1180 deltaF.

For B12, the “HTRF deltaF” value turned out to be 899 deltaF.

As for B13, the “HTRF deltaF” value was found to be 894 deltaF.

B14: the “HTRF deltaF” value amounted to 217 deltaF.

As for B15, the “HTRF deltaF” value was 597 deltaF.

Turning to B16, the “HTRF deltaF” value is 608 deltaF.

As for B17, the “HTRF deltaF” value amounted to 983 deltaF.
